Laboratory results: article PMC8625466 (Viruses, 2021)
Read-outs that look alike come from different tables or passages of the source.

System: FMDV

Row | SMILES | SI (selectivity index, CC50/EC50) (post-viral entry) | SI (selectivity index, CC50/EC50) (prophylaxis) | SI (selectivity index, CC50/EC50) (viral entry)
1 | O=c1cc(-c2ccc(O)c(O)c2)oc2cc(O)cc(O)c12 [Luteolin] | > 10 | > 3.87 | > 10.3
2 | COc1ccc(-c2cc(=O)c3c(O)cc(O)c(-c4cc(-c5cc(=O)c6c(O)cc(O)cc6o5)ccc4OC)c3o2)cc1 [Isoginkgetin] | > 51.8 | > 14.8 | > 49.8
